Source: publication PMC3384613
The exact form of at least one protein or probe is not confirmed.

System: GST-Czf1p (wild type) (Candida albicans)
Assay: EMSA
Conditions: binding detectable from 25 nM, multiple complexes at higher protein; 12% glycerol, 12 mM HEPES-NaOH pH 7.9, 4 mM Tris-Cl pH 7.9, 90 mM KCl, 2 ug poly(dI-dC), 5 ug BSA, 0.625 ng probe in 20 uL, 30 min at 30 C; recombinant protein; residues 1-385; protein details: GST (N-terminal); label: 32P 5' end label (T4 PNK); probe letters rebuilt from the primers and the genome

CAAAACAAGCCAGAATAAAAATATCAACAAAATGGTTTTAACTTTCATTAAAAAACTTTAAAATCTTAACTATTAATTGCTAATGTTGCAGATCAATAATATTGAGCCATGAATGAGAGATATAAACATGTTATAGAACAACAACAACGAGAAAGAAAAAAAAAAGACTACAAACCAAATAGTTGATTTAAGCTATTATAACCTTGAATAGTTTAATTCATTTTCATTTGAGTTTTTTCTTCCCATTGTGTTCCGTAAATGAATTAGAAGAGCATTGGATTGTTTTGAAGCTATTCATGATTATATGGACCCAATAATAACAATAAGACATAACTCATTTAAACATATTCATCTAATCGAAAAAGAAGTATTCAAAGTTTGGGATTATCAACAATAATGTCGGGGAGGCAAATGTATCTAATGCTAAATATTTCTTGCGTCATAACTCATTAAATAGCCCATACTGCATTAATTGTTTAGGTAACACTTGTCCAGAACAATACTTTTTTTTTTAGTGGATAGAATACTATTGTGCCAATCATTTGACTCTTTTGGTACTTCCGGT (double strand) [CZF1 promoter fragment E]
binding result: binds
